Reference: article PMC12617615, “Decoding substrate recognition in malapain-2 through structural and mutational insights” (Computational and Structural Biotechnology Journal, 2025)

Experiments:
[1] = test system: Cc1cc(=O)oc2cc(NC(=O)[C@H](CCCNC(=N)N)NC(=O)[C@H](CC(C)C)NC(=O)OCc3ccccc3)ccc12; assay: purified protein; conditions: 100 mM sodium acetate pH 5.0, 10 mM DTT, 37 °C, 20 nM enzyme, substrate range 0.1–100 μM
[2] = test system: Cc1cc(=O)oc2cc(NC(=O)[C@H](CCCNC(=N)N)NC(=O)[C@H](CCCNC(=N)N)NC(=O)OCc3ccccc3)ccc12; assay: purified protein; conditions: 100 mM sodium acetate pH 5.0, 10 mM DTT, 37 °C, 20 nM enzyme, substrate range 0.1–100 μM

Substance | Km [1] | Km [2]
malapain-2 (MP-2) (Plasmodium malariae; E496A) | 290.7 ± 2.1 µM | 393.7 ± 1.7 µM
malapain-2 (MP-2) (Plasmodium malariae; E496D) | 923.9 ± 0.9 µM | 289.1 ± 0.9 µM
malapain-2 (MP-2) (Plasmodium malariae; E496D/T348I) | 201.2 ± 6.1 µM | 674.4 ± 3.1 µM
malapain-2 (MP-2) (Plasmodium malariae; T348A) | 77.9 ± 1.3 µM | 448.4 ± 1.6 µM
malapain-2 (MP-2) (Plasmodium malariae; T348I) | 534 ± 1.9 µM | 469.5 ± 1.2 µM
